System: Borrelia burgdorferi strain B31
Test: Antibiotic bait diet fed no-choice for seven days to mice infected with Lyme disease spirochete; ear punch biopsy culture and dark field microscopy
Format: in vivo, laboratory mice (Swiss-Webster)
Conditions: for MEAN BAIT CONSUMPTION (G): seven consecutive days, infected mice
Method: The diet compositions described in Examples 1-3 were fed separately on a no-choice basis to separate groups of laboratory mice (Swiss-Webster) infected with the Lyme disease spirochete Borrelia burgdorferi. […]. The mice had all been previously infected with B. burgdorferi strain B31 by subcutaneous injection followed by a minimum 21-day incubation period. To confirm that the mice were positive for the spirochete, a modified ear punch biopsy was performed (Sinsky and Piesman, 1989, J. of Clin. Micro. 27:1723-1727, CDC 1997) on each mouse and the biopsy incubated in a modified BSK-H media for 7 days and viewed under dark field microscopy. The prepared diets were fed to individually housed mice on a no-choice basis and water was offered ad libitum. Consumption was recorded each day and additional feed was added. Diet was presented to the mice for seven consecutive days. On the day following the last day feed was offered, mice were anesthetized with Halothane and ear punch biopsy was performed. The biopsies were incubated in modified BSK-H media for seven days at 34±1° C. Dark field microscopy was then performed on an American Optics 1031 microscope with an American Optics dark field 1096 condenser to determine the presence of spirochetes. Cultures were considered positive if spirochete growth occurred within five weeks of inoculation (Wilske and Preac-Mursic, Aspects of Lyme Borreliosis, Springer-Verlag, New York 1993), viewing the cultures at seven-day increments. A slide was considered negative if no spirochetes were found after searching 100 fields at 400× (Ginsberg and Ewing, J. of Med. Entomology, 26: 183-189, 1989).

| Compound | MEAN BAIT CONSUMPTION (G) (Treatment level 1, chloramphenicol 500 μg/g bait) | MEAN BAIT CONSUMPTION (G) (Treatment level 2, chloramphenicol 1000 μg/g bait) | MEAN BAIT CONSUMPTION (G) (Treatment level 3, thiamphenicol 1000 μg/g bait) | MEAN THIAMPHENICOL INTAKE PER DAY (Treatment level 3, thiamphenicol 1000 μg/g bait, seven days) [mg] |
| --- | --- | --- | --- | --- |
| O=C(N[C@H](CO)[C@H](O)c1ccc([N+](=O)[O-])cc1)C(Cl)Cl [CHLORAMPHENICOL, chloramphenicol] | 41.3 ± 4.3 | 42.2 ± 5.5 |  |  |
| CS(=O)(=O)c1ccc([C@@H](O)[C@@H](CO)NC(=O)C(Cl)Cl)cc1 [THIAMPHENICOL, thiamphenicol] |  |  | 39.9 ± 20.3 | 2.9 ± 1.4 |

— patent US20030036564A1, “Control of lyme disease spirochete” (priority 2001, published 2003)
